The text below walks through data of patent publication US20150259428.

For orientation: Kd means the constant that tells how readily two partners part at equilibrium. Read a low Kd as tighter binding.

The test addresses T1, CD20 (B-lymphocyte antigen CD20), human, expressed on the cell surface, human, P11836 1-297.
T1 sequence: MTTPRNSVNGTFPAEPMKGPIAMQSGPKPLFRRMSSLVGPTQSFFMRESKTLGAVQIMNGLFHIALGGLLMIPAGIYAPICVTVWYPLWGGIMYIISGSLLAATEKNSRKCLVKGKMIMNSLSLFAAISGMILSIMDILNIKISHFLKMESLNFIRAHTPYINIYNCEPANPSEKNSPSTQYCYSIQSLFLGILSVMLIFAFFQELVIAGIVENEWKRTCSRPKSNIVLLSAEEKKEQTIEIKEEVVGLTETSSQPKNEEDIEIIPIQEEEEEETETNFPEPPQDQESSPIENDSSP

αCD20scFv1::SLT-1A version 1: the Kd is 0.0825 µM.
αCD20scFv1::SLT-1A version 2 registered a Kd of 0.101 µM.
